Experimental findings from PMC13480645 (PLOS Pathogens, 2026) are described below.

Numbering of substitutions follows the chain as printed.

Assay [1] addresses T1, SARS-CoV-1/2 S2 stem helix peptide, biotinylated (SARS-CoV-2 (spike 1140-1164; same in …, biotin on the N-terminus).
T1 chain: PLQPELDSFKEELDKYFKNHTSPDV
The experiment in a line: BLI. The settings on record: both partners purified.

Assay [2] concerns the target SARS-CoV-1/2 S2 stem helix peptide, biotinylated (SARS-CoV-2 (spike 1140-1164; same in …, biotin on the N-terminus). The experiment in a line: BLI. The settings on record: both partners purified. This is another data set of the same source.
The target of assay [3] is MERS-CoV S2 stem helix peptide, biotinylated (MERS-CoV (spike 1221-1247, UniProt …, biotin on the N-terminus)). The assay can be described thus: BLI. The settings on record: both partners purified.
For assay [4], the target named is MERS-CoV spike, full length, expressed on the cell surface (MERS-CoV, UniProt K9N5Q8). The assay can be described thus: cell-based or functional assay.
Assay [5] has as its target SARS-CoV-1 spike, full length, expressed on the cell surface (SARS-CoV-1, strain , UniProt P59594). The experiment in a line: flow cytometry on cells; […] PE anti-human IgG Fc; MFI. The settings on record: one partner purified. For orientation: A flow cytometer gives signals particle by particle.
Assay [6] deals with MERS-CoV S2 stem peptide used for crystallization (MERS-CoV (spike 1221-1247, UniProt …)). The assay can be described thus: crystal structure. The settings on record: both partners purified.
Assay [7] concerns the target SARS-CoV-2 S2 stem peptide used for crystallization (SARS-CoV-2 (spike 1140-1164; same in …). The assay can be described thus: crystal structure. The settings on record: both partners purified.

B1: engineered CC65.1 mAb eCC65.1-2 (antibody, V domains shown)
VH: VQLVQSGAEVKKPGASVKVSCKATGYTFTSQYMHWVRQAPGQGLEWMGIIDPKGGGTSYAQKFRDRVSMTRDTPTSTVYMELRSLRSEDTAVYYCASLWFENPSWTDYWGQGTLVTVSS
VL: VMTQSPGTLSLSPGERATLSCRASQTVNKNYLAWYQQKPGQAPRLLIYHASSRATGIPDRFSGSGSGTDFTLTISRLEPEDFAVYYCQQYGSSPPLFTFGPGTKLEIK
notes: copies: 2 + 2
With B1, the binding result in assay [1] is on record as “binds”.

B2: engineered CC65.1 mAb eCC65.1-10 (antibody, V domains shown)
VH: B1 VH with T24S, T27D, K53S, T106S
VL: B1 VL with S92A
notes: copies: 2 + 2
Regarding B2, in assay [1], the binding result is on record as “binds”.

B3: engineered CC65.1 mAb eCC65.1-5 (antibody, V domains shown)
VH: B1 VH with K53S, L98I, T106R
VL: B1 VL with H49G
notes: copies: 2 + 2
Regarding B3, the binding result in assay [1] is “binds”.

B4: engineered CC65.1 mAb eCC65.1-12 (IgG) (antibody, V domains shown)
VH: EVQLVQSGAEVKKPGASVKVSCKASGYTFTSQYMHWVRQAPGQGLEWMGIIDPSGGGTSYAQKFRDRVSMTRDTPTSTVYMELRSLRSEDTAVYYCASLWFENPSWRDYWGQGTLVTVSS
VL: DVVMTQSPGTLSLSPGERATLSCRASQTVNKNYLAWYQQKPGQAPRLLIYHASSRATGIPDRFSGSGSGTDFTLTISRLEPEDFAVYYCQQYGASPPLFTFGPGTKLEIK
notes: copies: 2 + 2
Regarding B4, the “fold increase in affinity over parental CC65.1” value in assay [2] was 35.4 fold. Besides, the binding result in assay [3] and in assay [5] was “binds” throughout. Further, the “IC50 of neutralization of MERS-CoV pseudovirus (HeLa-hDPP4 cells)” value in assay [4] is 4.18 µg/mL.

B5: CC65.1 Fab (Fab, V domains shown)
VH: B4 VH
VL: B4 VL with K31S, H51R, A94S
Regarding B5, in assay [6], the binding result is on record as “binds”.

B6: engineered CC65.1 mAb eCC65.1-13 (antibody, V domains shown)
VH: B4 VH
VL: B1 VL with H49G, S92A
notes: source: Expi293, transfected, purified (Protein A and Protein G Sepharose); copies: 2 + 2
Consider B6, for which the binding result in assay [3] is on record as “binds”.

B7: CC65.1 single-chain variable fragment (scFv) (scFv, V domains shown)
VH: B4 VH
VL: B4 VL with K31S, H51R, A94S
B7: the binding result in assay [7] is listed as “binds”.

B8: eCC65.1-12 Fab (Fab, V domains shown)
VH: B4 VH
VL: B4 VL
For the molecule B8, the binding result in assay [6] is given as “binds”.

B9: engineered CC65.1 mAb eCC65.1-6 (antibody, V domains shown)
VH: B4 VH
VL: B1 VL
notes: copies: 2 + 2
With B9, the binding result in assay [3] is listed as “binds”.

B10: CC65.1 human monoclonal antibody (IgG) (antibody, V domains shown)
VH: B4 VH
VL: B4 VL with K31S, H51R, A94S
notes: also called parental CC65.1; copies: 2 + 2
In the case of B10, the dissociation constant (Kd) – broadly, the equilibrium constant for the complex coming apart – was about 0.1 nM in assay [2] and about 1 nM in assay [3]. For the same molecule, the binding result in assay [5] was “binds”.
